Anti-infective test results gathered from many reports (values: NIAID ChemDB through PubChem).

Shared fields: whole-cell or culture tests; species: Mycobacterium smegmatis; measure: MIC

Conditions beyond the fields shown may differ between rows. An empty or dashed field is not shown. a–b is a range or a potency band.

compound,strain or isolate,changes,method,value
CCN1CCN(c2nc3c(cc2F)c(=O)c(C(=O)O)cn3C2CC2)CC1,ATCC 19420,-,-,0.25 µg/mL
N#CC(C#N)=NNc1cccc(Cl)c1,PMN1 LFR,-,-,30 µg/mL
CNCC1CCN(c2c(F)cc3c(=O)c(C(=O)O)cn(C4CC4)c3c2Cl)C1,ATCC 19420,-,-,0.06 µg/mL
C[C@H]1NCc2cc(-c3ccc4c(=O)c(C(=O)O)cn(C5CC5)c4c3OC(F)F)ccc21,A28314,-,-,0.13 µg/mL
Cc1ccc(Nc2cc(=O)n3c(-c4cccc([N+](=O)[O-])c4)csc3n2)cc1S(=O)(=O)O,-,-,broth dilution / visual reading,>800 µg/mL
Cc1c(N2CCCC(C)(N)C2)c(F)cn2c(=O)c(C(=O)O)cc(C3CC3)c12.Cl,ATCC114,-,-,0.2 µg/mL
COc1ccc(Nc2cc(=O)n3c(-c4cccc(N)c4)csc3n2)cc1S(=O)(=O)O,-,-,broth dilution / visual reading,50 µg/mL
Cc1ccc(C)n1Cc1ccccc1,103599,-,-,>16 µg/mL
O=C(O)c1cn(C2CC2)c2c(Cl)c(N3CCNCC3)c(F)cc2c1=O,ATCC 19420,-,-,0.13 µg/mL
Cc1c(CN2CCN(C)CC2)c(CN2CCN(C)CC2)c(-c2ccc(Cl)cc2)n1C1CCCCC1,103599,-,-,>64 µg/mL
CNCC1CCN(c2c(F)cc3c(=O)c(C(=O)O)cn(-c4ccc(F)cc4F)c3c2OC)C1,ATCC 19420,-,-,2 µg/mL
CCC[C@H](N)[C@@H]1CCN(c2c(F)cn3c(=O)c(C(=O)O)cc(C4CC4)c3c2C)C1.Cl,ATCC114,-,-,0.1 µg/mL
CCN1CCN(c2nc3c(cc2F)c(=O)c(C(=O)O)cn3CC)CC1,ATCC 19420,-,-,2 µg/mL
Cc1c(SCCN)c(F)cn2c(=O)c(C(=O)O)cc(C3CC3)c12.O=C(O)C(F)(F)F,ATCC114,-,-,0.78 µg/mL
CCCCCCCCCCCCCCCC[N+](C)(C)CC,MC^2 552 (ciprofloxacin-resistant),-,-,8 µg/mL
CC(C)Cc1cnc(C(=O)/C=C/c2ccccc2Br)cn1,CCM,-,absorbance,62.5 µg/mL
COc1ccc(Nc2cc(=O)n3c(-c4ccc([N+](=O)[O-])cc4)csc3n2)cc1S(=O)(=O)O,-,-,broth dilution / visual reading,>800 µg/mL
Cc1[nH]c(-c2ccc(Cl)cc2)cc1CN1CCN(C)CC1,103599,-,-,>64 µg/mL
O=C(O)c1cn(-c2ccc(F)cc2F)c2c(F)c(N3CCNCC3)c(F)cc2c1=O,ATCC 19420,-,-,1 µg/mL
CC[C@@H](C(=O)[C@@H](C)[C@@H](O)[C@H](C)[C@@H]1O[C@@H]([C@@H](CC)C(=O)O)CC[C@@H]1C)[C@H]1O[C@@]2(C=C[C@@H](O)[C@@]3(CC[C@@](C)([C@H]4CC[C@](O)(CC)[C@H](C)O4)O3)O2)[C@H](C)C[C@@H]1C,mc2155,-,resazurin,3.125 µg/mL
CCn1cc(C(=O)O)c(=O)c2cc(F)c(N3CCC(CNC)C3)nc21,ATCC 19420,-,-,1 µg/mL
Cc1ccc(Nc2cc(=O)n3c(-c4ccc([N+](=O)[O-])cc4)csc3n2)cc1S(=O)(=O)O,-,-,broth dilution / visual reading,>800 µg/mL
CNc1ccc2oc(C[C@@H]3OC4(CC[C@@H]3C)O[C@H](C(C)C(=O)c3ccc[nH]3)[C@H](C)C[C@H]4C)nc2c1C(=O)O,mc2155,G457A,resazurin,2.5 µg/mL
CC1CN(c2c(F)cc3c(=O)c(C(=O)O)cn(-c4ccc(F)cc4F)c3c2F)CC(C)N1,ATCC 19420,-,-,2 µg/mL
Cc1c(N2CCC[C@H](N)C2)c(F)cn2c(=O)c(C(=O)O)cc(C3CC3)c12,ATCC114,-,-,0.1 µg/mL
CC(C)(C)c1cnc(C(=O)/C=C/c2ccc(Br)cc2)cn1,CCM,-,absorbance,>250 µg/mL
Cc1c(N2CCC(C3(N)CC3)C2)c(F)cn2c(=O)c(C(=O)O)cc(C3CC3)c12.Cl,ATCC114,-,-,0.01 µg/mL
O=C(/C=C/c1ccccc1F)c1cnccn1,CCM,-,absorbance,15.6 µg/mL
Cc1c(N2C[C@@H](C)N[C@@H](C)C2)c(F)cn2c(=O)c(C(=O)O)cc(C3CC3)c12.Cl,ATCC114,-,-,0.2 µg/mL
CO[C@H]1/C=C/O[C@@]2(C)Oc3c(C)c(O)c4c(O)c(c(/C=N/N5CCN(C)CC5)c(O)c4c3C2=O)NC(=O)/C(C)=C\C=C\[C@H](C)[C@H](O)[C@@H](C)[C@@H](O)[C@@H](C)[C@H](OC(C)=O)[C@@H]1C,CCM,-,absorbance,0.78–1.56 µg/mL
Cl.NC1CCN(c2c(F)cn3c(=O)c(C(=O)O)cc(C4CC4)c3c2F)C1,ATCC114,-,-,0.2 µg/mL
CCCc1cnc(C(=O)/C=C/c2ccccc2F)cn1,CCM,-,absorbance,15.6 µg/mL
COc1ccc(Nc2cc(=O)n3c(-c4cccc([N+](=O)[O-])c4)csc3n2)cc1S(=O)(=O)O,-,-,broth dilution / visual reading,>800 µg/mL
CCCc1cnc(C(=O)/C=C/c2ccc(Br)cc2)cn1,CCM,-,absorbance,>250 µg/mL
CC1CN(c2c(F)cc3c(=O)c(C(=O)O)cn(C4CC4)c3c2Br)CC(C)N1,ATCC 19420,-,-,0.13 µg/mL
Cc1ccc(-c2ccc(Cl)cc2)n1Cc1ccccc1,103599,-,-,>16 µg/mL
CCCCc1cnc(C(=O)/C=C/c2ccc(Br)cc2)cn1,CCM,-,absorbance,125 µg/mL

A second listing of 2 rows from above:

{"compound": "C[C@H]1NCc2cc(-c3ccc4c(=O)c(C(=O)O)cn(C5CC5)c4c3OC(F)F)ccc21", "strain or isolate": "A28314", "value": "0.13 µg/mL"}
{"compound": "CCCc1cnc(C(=O)/C=C/c2ccccc2F)cn1", "strain or isolate": "CCM", "method": "absorbance", "value": "15.6 µg/mL"}